Data source: PubChem BioAssay AID504761 (Drosophila RNAi Screening Center, 2011)
Assay: 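Fly genes whose silencing reduces dengue virus type 2 infection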 (primary screen). Cells: D.Mel-2 cells from Drosophila. Reagent: long dsRNA against Drosophila genes. Treatment: infection with dengue virus type 2; dose and infection time not stated. Measured: 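Per well on two replicate plates, imaging gave the percent of cells positive for viral envelope protein, ranked by infection, and a nuclear count of cells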. Reading the numbers: infection score: higher = more virus-infected cells; cell count: higher = more cells in the well. Call rule: 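Low infection ranks in the two replicates (chance level up to 0.065) followed by a retest with a 1.5-fold or larger significant decrease, p below 0.05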. Calls: active = confirmed: knock-down lowers infection; inactive = not picked or not confirmed.
In all, the deposit lists about 22,000 reagents; below is an unselected part of those with a known target gene and a result. Over the whole deposit, 116 (0.52%) got an active call. 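Calls depend on retest data that are not deposited; infection was ranked per plate without normalising between plates; the unit of the infection score is not given.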 Raw values are not corrected between plates. Entries without a mark were called inactive. Names joined by + are all predicted targets of the reagent. The record does not give: the amount of reagent, the time to read-out.

gene knocked down,DRSC id,"infection score, replicate 1","infection score, replicate 2","cell count, replicate 1","cell count, replicate 2"
Cdep (Chondrocyte-derived ezrin-like domain containing protein),DRSC12028,1.31,2.03,5666,6245
Cdep (Chondrocyte-derived ezrin-like domain containing protein),DRSC12220,14.5,6.72,4787,6344
Cdep (Chondrocyte-derived ezrin-like domain containing protein),DRSC12291,0.42,2.22,6458,6879
Acp24A4 (Accessory gland protein 24A4),DRSC22352,1.82,4.25,6523,6773
bdg (bedraggled),DRSC07136,,40.2,519,5105
Ir7c (Ionotropic receptor 7c),DRSC18007,4.08,2.93,5778,6222
mRpL33 (mitochondrial ribosomal protein L33),DRSC18319,19.8,4.89,4947,6519
CG17572,DRSC02629,1.01,9.36,6546,6153
CAH8 (Carbonic anhydrase 8),DRSC15784,6.85,3.67,5284,6569
Nt5b (5' nucleotidase B),DRSC19976,0.95,6.37,6598,6941
Nt5b (5' nucleotidase B),DRSC19977,26.9,7.55,5442,5802
Nt5b (5' nucleotidase B),DRSC19978,2.67,2.34,5890,5930
Nt5b (5' nucleotidase B),DRSC22588,8.46,3.39,6290,6528
Nt5b (5' nucleotidase B),DRSC28223,16.3,11.2,4975,5122
CG12237,DRSC19449,14,3.63,6228,6440
CG12237,DRSC22256,1.73,1.75,6256,6843
CG12237,DRSC24647,14.5,26.9,5911,5565
Hsp70Bb + Hsp70Bbb,DRSC15885,2.27,2.56,6067,6834
CG12780,DRSC06169,7.75,30.4,6526,5122
CG31820,DRSC21318,2.06,1.5,6413,6716
CG31820,DRSC29683,13.3,32.9,5243,5328
CG5762,DRSC15869,3.04,3.15,6835,6258
Saf-B (Scaffold attachment factor B),DRSC16167,5.23,16.1,4842,4543
Saf-B (Scaffold attachment factor B),DRSC28393,0.22,13.4,462,2019

Reformatted: results already given
| gene knocked down | DRSC id | infection score, replicate 1 | infection score, replicate 2 | cell count, replicate 1 | cell count, replicate 2 |
| --- | --- | --- | --- | --- | --- |
| Ir7c (Ionotropic receptor 7c) | DRSC18007 | 4.08 | 2.93 | 5778 | 6222 |
| mRpL33 (mitochondrial ribosomal protein L33) | DRSC18319 | 19.8 | 4.89 | 4947 | 6519 |
| CG17572 | DRSC02629 | 1.01 | 9.36 | 6546 | 6153 |
| CAH8 (Carbonic anhydrase 8) | DRSC15784 | 6.85 | 3.67 | 5284 | 6569 |
